Values from PubChem BioAssay AID504761 (Drosophila RNAi Screening Center, 2011).
In all, the deposit lists about 22,000 reagents; below is a random part of those that have a named target and a result. Of all reagents, 116 (0.52%) are marked active. 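Calls depend on retest data that are not deposited; infection was ranked per plate without normalising between plates; the unit of the infection score is not given.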 Raw values are not corrected between plates. A plus sign joins genes that one reagent is predicted to hit. Further read-outs or replicates are left out here. No sequences are given here. The record does not give: the amount of reagent, the time to read-out.

- Aim: 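Insect host genes that dengue virus relies on to spread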 (primary screen)
- Cell system: D.Mel-2 cells from Drosophila
- Knock-down reagent: long dsRNA against Drosophila genes
- Challenge: infection with dengue virus type 2; dose and infection time not stated
- Measured: 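Per well on two replicate plates, imaging gave the percent of cells positive for viral envelope protein, ranked by infection, and a nuclear count of cells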
- Scale: infection score: higher = more virus-infected cells; cell count: higher = more cells in the well
- Hit rule: 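Low infection ranks in the two replicates (chance level up to 0.065) followed by a retest with a 1.5-fold or larger significant decrease, p below 0.05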
- Meaning of the calls: active = confirmed: knock-down lowers infection; inactive = not picked or not confirmed

Ilp8 (GeneID 39909) [DRSC10076]: infection score, replicate 1 = 2.12; cell count, replicate 1 = 6335; call = inactive
tst + CG10375 [DRSC14237]: infection score, replicate 1 = 2.94; cell count, replicate 1 = 5814; call = inactive
CG31418 (GeneID 42084) [DRSC21780]: infection score, replicate 1 = 7.34; cell count, replicate 1 = 6399; call = inactive
CG31418 (GeneID 42084) [DRSC26160]: infection score, replicate 1 = 6.93; cell count, replicate 1 = 5888; call = inactive
sals (GeneID 41377) [DRSC14925]: infection score, replicate 1 = 8.77; cell count, replicate 1 = 6808; call = inactive
sals (GeneID 41377) [DRSC16113]: infection score, replicate 1 = 4.72; cell count, replicate 1 = 5870; call = inactive
sals (GeneID 41377) [DRSC28473]: infection score, replicate 1 = 14.1; cell count, replicate 1 = 4732; call = inactive
CG4576 (GeneID 41914) [DRSC15604]: infection score, replicate 1 = 1.25; cell count, replicate 1 = 6698; call = inactive
CG4576 (GeneID 41914) [DRSC26364]: infection score, replicate 1 = 9.13; cell count, replicate 1 = 3231; call = inactive

Next part, starting with the last 3 of the part before.
sals (GeneID 41377) [DRSC28473]: infection score, replicate 1 = 14.1; cell count, replicate 1 = 4732; call = inactive
CG4576 (GeneID 41914) [DRSC15604]: infection score, replicate 1 = 1.25; cell count, replicate 1 = 6698; call = inactive
CG4576 (GeneID 41914) [DRSC26364]: infection score, replicate 1 = 9.13; cell count, replicate 1 = 3231; call = inactive
CG6836 (GeneID 40070) [DRSC10722]: infection score, replicate 1 = 5.75; cell count, replicate 1 = 6257; call = inactive
CG6836 (GeneID 40070) [DRSC26906]: infection score, replicate 1 = 6.53; cell count, replicate 1 = 6801; call = inactive
CG10086 (GeneID 40920) [DRSC14183]: infection score, replicate 1 = 8.03; cell count, replicate 1 = 4879; call = inactive
CG14259 (GeneID 43261) [DRSC14754]: infection score, replicate 1 = 2.26; cell count, replicate 1 = 6600; call = inactive
CG8292 (GeneID 34125) [DRSC03082]: infection score, replicate 1 = 3.47; cell count, replicate 1 = 5932; call = inactive
Tti1 (GeneID 41189) [DRSC15163]: infection score, replicate 1 = 10.5; cell count, replicate 1 = 5886; call = inactive
Tti1 (GeneID 41189) [DRSC27694]: infection score, replicate 1 = 15.3; cell count, replicate 1 = 5574; call = inactive
CG33333 (GeneID 2768672) [DRSC13233]: infection score, replicate 1 = 1.5; cell count, replicate 1 = 6656; call = inactive
CG13887 (GeneID 38096) [DRSC08357]: infection score, replicate 1 = 9.9; cell count, replicate 1 = 5821; call = inactive
PK1-R (GeneID 41713) [DRSC16577]: infection score, replicate 1 = 3.3; cell count, replicate 1 = 6486; call = inactive
CG31493 (GeneID 318765) [DRSC12583]: infection score, replicate 1 = 2.93; cell count, replicate 1 = 6036; call = inactive
Kap3 (GeneID 32071) [DRSC19426]: infection score, replicate 1 = 9.41; cell count, replicate 1 = 6258; call = inactive
Kap3 (GeneID 32071) [DRSC25680]: infection score, replicate 1 = 0.92; cell count, replicate 1 = 5750; call = inactive
mRpS26 (GeneID 40001) [DRSC10823]: infection score, replicate 1 = 8.82; cell count, replicate 1 = 5474; call = inactive
mRpS26 (GeneID 40001) [DRSC27288]: infection score, replicate 1 = 30.5; cell count, replicate 1 = 5814; call = inactive
EndoU (GeneID 41931) [DRSC15472]: infection score, replicate 1 = 18.3; cell count, replicate 1 = 6743; call = inactive
CG7646 (GeneID 40187) [DRSC11232]: infection score, replicate 1 = 4.43; cell count, replicate 1 = 6323; call = inactive
CG13217 (GeneID 36180) [DRSC06339]: infection score, replicate 1 = 2.21; cell count, replicate 1 = 6661; call = inactive
